Compound potency records, mixed from different reports. Data source: NIAID ChemDB in PubChem.

All rows: growth or infection tests; species: HIV-1; endpoint: EC50

An empty or dashed field is not shown. Rows are shuffled and stem from different studies. ECn: concentration that inhibits the pathogen or its effect by n%.

Cc1cn([C@H]2C[C@H](N=[N+]=[N-])[C@@H](CO)O2)c(=O)[nH]c1=O ; strain: NL4.3-XCS ; mutations: 41-215 (AZT-resistant) ; cells: HeLa CD4 ; method: β-galactosidase ; result: 1.12 µM
Cc1cc(S(N)(=O)=O)ccc1NC(=O)COc1ccc(Cl)cc1C(=O)c1cc(C#N)cc(C(=O)N2CCC2)c1 ; mutations: V106A ; cells: HeLa ; result: >2 µM
Cc1ccc(-c2ccc3c(c2)C=C(C(=O)Nc2ccc(C[N+](C)(C)C4CCSCC4)cc2)CCO3)cc1 ; strain: JR-FL ; cells: MAGI + MAGI-CCR5 ; method: β-galactosidase ; result: 0.006 µM
c1ccc(CNc2nc(-c3cccnc3)cs2)cc1 ; strain: NL4.3-XCS ; mutations: K103N (NVP) ; cells: HeLa CD4 ; method: β-galactosidase ; result: 2.141 µM
Cn1c2ccccc2c2c1cc(C#N)c(=O)n2-c1ccc([N+](=O)[O-])cc1 ; strain: NRTI resistant ; mutations: RT-V75I F77L F116Y Q151M ; cells: HeLa ; method: luciferase ; result: 0.0244 µM
Cc1ccc(-c2ccc3c(c2)C=C(C(=O)Nc2ccc(C[N+](C)(C)CCCO)cc2)CCO3)cc1 ; strain: JR-FL ; cells: MAGI + MAGI-CCR5 ; method: β-galactosidase ; result: 0.014 µM
Nc1nc(=O)n([C@@H]2CS[C@H](CO)O2)cc1F ; strain: HXB2 ; cells: CD4+HELA + HeLa ; method: plaque count ; result: 0.085 ± 0.007 µM
Cc1ccnc2c1NC(=O)c1cccnc1N2C1CC1 ; strain: NL4-3 ; mutations: WT ; cells: C8166 ; method: antigen ; result: 0.01197 µM
Cc1ccc(-c2ccc3c(c2)C=C(C(=O)Nc2ccc(C[N+](C)(C)C4CCOCC4)cc2)CCC3)cc1 ; strain: JR-FL ; cells: MAGI + MAGI-CCR5 ; method: β-galactosidase ; result: 0.0014 µM
CC(C)=CCC[C@@H](C)C1CC[C@]2(C)CC=C(C=O)C1(C=O)[C@@H]2O ; strain: Subtype B isolate BR48 ; cells: PM1 ; method: p24 ; result: 40 µg/mL
O=C1CN=C(c2ccc[nH]2)c2cc(Cl)ccc2N1 ; strain: IIIB/LAI ; cells: HUT-78/IIIB/LAI + HUT 78 ; method: p24 ; result: >1 µM
Cc1cc(S(N)(=O)=O)ccc1NC(=O)COc1ccc(Cl)cc1C(=O)c1cc(N)cc(C#N)c1 ; mutations: V106A ; cells: HeLa ; result: 0.027 µM
O=C1N(Cc2ccc(CO)cc2)[C@H](Cc2ccccc2)[C@H](O)[C@@H](O)[C@@H](Cc2ccccc2)N1Cc1ccc(CO)cc1 ; strain: Clinical isolate K ; cells: PBMC ; method: p24 ; result: 0.05 µM
S=C(NCCc1cccs1)Nc1ccc(Br)cn1 ; strain: G190-6 Clinical isolate NRTI-resistant ; mutations: RT-M41L D67N K70R T215Y K219Q ; cells: HT4 + HeLa ; method: plaque count ; result: 0.01 µM
Cc1cc(S(N)(=O)=O)ccc1NC(=O)COc1ccc(Cl)cc1C(=O)c1cc(C#N)cc(OC(F)F)c1 ; mutations: Y181C ; cells: HeLa ; result: 0.0018 µM
O=c1[nH]cnc2c1ncn2[C@H]1CC[C@@H](CO)O1 ; strain: DAS ; cells: Monocytes/macrophages ; result: 0.05 µM
C[N+]1(Cc2ccc(NC(=O)C3=Cc4cc(-c5ccccc5)ccc4CC3)cc2)CCCCCC1 ; strain: JR-FL ; cells: MAGI + MAGI-CCR5 ; method: β-galactosidase ; result: 0.82 µM
C/C(=C(/CCO)SS/C(CCO)=C(\C)N(C=O)Cc1cnc(C)nc1N)N(C=O)Cc1cnc(C)nc1N ; strain: MN ; cells: H9/HIV-1(MN) + H9 ; method: p24 ; result: <500 µM
COc1cc(C#N)cc(C(=O)c2cc(Cl)ccc2OCC(=O)Nc2ccc(S(N)(=O)=O)cc2C)c1 ; mutations: V106A ; cells: HeLa ; result: 0.0022 µM
O=C(O)/C=C/c1ccc[c]([Sb](=[O])([OH])[OH])c1 ; strain: 93IN101 R5 clinical isolate ; cells: MAGI ; method: β-galactosidase ; result: <10 µM
Cc1nc2ccccc2n1S(=O)(=O)c1cc(Br)ccc1Br ; strain: NL4.3-XCS ; mutations: M184V (3TC-resistant) ; cells: HeLa CD4 ; method: β-galactosidase ; result: 0.631 µM
Cc1cn([C@H]2C=C[C@@H](CO)O2)c(=O)[nH]c1=O ; strain: Recombinant ; mutations: RT-M184V ; cells: HeLa ; method: luciferase ; result: 1.59 µM
COC(=O)Nc1cc(C#N)cc(C(=O)c2cc(Cl)ccc2OCC(=O)Nc2ccc(S(N)(=O)=O)cc2C)c1 ; mutations: V106A ; cells: HeLa ; result: 0.04 µM
CC(=O)N1CCC(C(=O)N(CCCN2CCC(Cc3ccc(C(N)=O)cc3)CC2)c2ccc(C)c(Cl)c2)CC1 ; strain: R5 subtype B_8 recombinant ; cells: U87 (CD4+ CCR5+) + U87 ; method: luciferase ; result: 0.016 µM
Cc1c(O)c(=O)ccn1C ; strain: BaL ; cells: PBLC ; method: XTT / p24 ; result: <100 µM
Cc1cc(S(N)(=O)=O)ccc1NC(=O)COc1ccc(Cl)cc1C(=O)c1cc(C#N)cc(OCF)c1 ; mutations: WTRVA ; cells: HeLa ; result: 0.0007 µM
O=c1[nH]cnc2c1ncn2[C@H]1CC[C@@H](CO)O1 ; strain: HXB2 ; mutations: RT-V75T ; cells: CD4+HELA + HeLa ; method: plaque count ; result: 11 µM
C#C[C@]1(CO)O[C@@H](n2cnc3c(N)nc(F)nc32)C[C@@H]1O ; strain: Clinical isolate ; mutations: A400T ; cells: MT4-GFP ; method: fluorescence ; result: 0.00077 µM
Cc1ccnc2c1NC(=O)c1cccnc1N2C1CC1 ; cells: MAGI ; method: β-galactosidase ; result: <5 µg/mL
N#CC1C=Cc2ccccc2C1C(=O)/C=C/c1ccccc1 ; strain: NL4.3-XCS ; mutations: K103N (NVP) ; cells: HeLa CD4 ; method: β-galactosidase ; result: 1.534 µM
Nc1ccn(C[C@@H](CO)OCP(=O)(O)O)c(=O)n1 ; strain: IIIB ; cells: HELA-T4 + HeLa ; method: plaque count ; result: 2.7 µM
C=CC(C)(C)c1cc(/C=C/C(=O)c2ccc(O)cc2)c(OC)cc1O ; cells: MOLT-4/OKM-1(HIV-1) + MOLT-4 ; method: syncytia ; result: <20 µg/mL
Cc1cn([C@H]2C[C@H](N=[N+]=[N-])[C@@H](CO)O2)c(=O)[nH]c1=O ; strain: G890-1 Clinical isolate ZDV-resistant ; mutations: RT-K20R M41L D67N T69N K70R L210W T215Y ; cells: HT4 + HeLa ; method: syncytia ; result: 3.6 µM
CC(=O)c1cc(C#N)cc(C(=O)c2cc(Cl)ccc2OCC(=O)Nc2ccc(S(N)(=O)=O)cc2C)c1 ; mutations: WTRVA ; cells: HeLa ; result: 0.0007 µM
O=C(O)c1c(Br)c(Br)c(Br)c(Br)c1-c1c2ccc(=O)c(O)c-2oc2c(O)c(O)ccc12 ; strain: IIIB ; cells: MAGI ; method: β-galactosidase ; result: 12.8 µM
C[N+](C)(Cc1ccc(NC(=O)C2=Cc3cc(-c4ccc(N5CCCCC5)cc4)ccc3CCC2)cc1)C1CCOCC1 ; strain: JR-FL ; cells: MAGI + MAGI-CCR5 ; method: β-galactosidase ; result: 0.0013 µM
Cc1cc(S(N)(=O)=O)ccc1NC(=O)COc1ccc(Cl)cc1C(=O)c1cc(C#N)cc(N(C)C)c1 ; mutations: WTRVA ; cells: HeLa ; result: 0.0006 µM
CC(C)=CCc1cc(-c2coc3cc(O)cc(O)c3c2=O)cc(O)c1O ; cells: MOLT-4/OKM-1(HIV-1) + MOLT-4 ; method: syncytia ; result: <20 µg/mL
Nc1nc(NC2CC2)c2ncn([C@H]3C=C[C@@H](CO)C3)c2n1 ; strain: Recombinant ; mutations: RT-V118I M184V ; cells: HeLa ; method: luciferase ; result: 8.07 µM
Cc1cc(S(N)(=O)=O)ccc1NC(=O)COc1ccc(Cl)cc1C(=O)c1cc(C#N)cc(C(N)=O)c1 ; mutations: V106A ; cells: HeLa ; result: >2 µM

The first 2 rows once more:

SMILES | strain | mutations | cells | method | result
Cc1cn([C@H]2C[C@H](N=[N+]=[N-])[C@@H](CO)O2)c(=O)[nH]c1=O | NL4.3-XCS | 41-215 (AZT-resistant) | HeLa CD4 | β-galactosidase | 1.12 µM
Cc1cc(S(N)(=O)=O)ccc1NC(=O)COc1ccc(Cl)cc1C(=O)c1cc(C#N)cc(C(=O)N2CCC2)c1 | - | V106A | HeLa | - | >2 µM